Compound potency records, mixed from different reports. Data source: NIAID ChemDB in PubChem.

All rows: enzyme or target tests

Blank or dashed fields: not listed here.

compound	tested at	read by	protein	measure	organism	result
O=C(Nc1sccc1-c1nc(C(=O)O)c(O)c(=O)[nH]1)OCc1ccccc1			HCV polymerase	IC50	Hepatitis C virus	<25 µM
O=C(Nc1ccc2[nH]ncc2c1)c1cc(N2CCNCC2)c(F)cc1F	0.1 µg/mL		Reverse transcriptase	inhibition	Hepatitis B virus	36%
O=C(NCc1ccc(Cl)cc1F)Nc1cscc1-c1nc(C(=O)O)c(O)c(=O)[nH]1			HCV polymerase	IC50	Hepatitis C virus	<25 µM
Cc1ccc(N(C)C(=O)c2cc(-c3ccccc3)sc2C(=O)O)cc1			NS3 ATPase	IC50	Hepatitis C virus	5–20 µM
O=C(c1ccc(CN(c2ccc(Cl)cc2Cl)[C@@H](Cc2ccccc2)C(=O)O)cc1)c1ccc(F)c(F)c1			RNA-dependent RNA polymerase	IC50	Hepatitis C virus	<5 µM
Cc1cccc(COc2cc(O)cc(-c3nc(C(=O)O)c(O)c(=O)[nH]3)c2)c1F			HCV polymerase	IC50	Hepatitis C virus	<100 µM
O=C(O)[C@H](Cc1ccccc1)N(Cc1cccc(-c2cc3ccccc3o2)c1)c1ccc(Cl)cc1Cl			RNA-dependent RNA polymerase	IC50	Hepatitis C virus	<5 µM
C/C(=C1\SC(=S)N(NS(=O)(=O)c2ccccc2)C1=O)c1ccc(Cl)c(Cl)c1			NS5B polymerase	IC50	Hepatitis C virus	≤30 µM
CN(C(=O)c1cccs1)c1cc(-c2ccccc2)sc1C(=O)O			NS3 ATPase	IC50	Hepatitis C virus	5–20 µM
O=C(Nc1ccc2[nH]ncc2c1)c1cc(NCc2ccccn2)c(F)cc1F	0.1 µg/mL		Reverse transcriptase	inhibition	Hepatitis B virus	43%
Cc1cc(S(=O)(=O)Nc2cc(-c3ccccc3)sc2C(=O)O)c(C)cc1Cl			NS3 ATPase	IC50	Hepatitis C virus	5–20 µM
COc1cc(/C=C2/SC(=S)NC2=O)ccc1O			NS5B polymerase	IC50	Hepatitis C virus	≤30 µM
NCc1cccc(COC(=O)Nc2ccsc2-c2nc(C(=O)O)c(O)c(=O)[nH]2)c1			HCV polymerase	IC50	Hepatitis C virus	<25 µM
O=C1/C(=C\c2ccccc2)SC(=S)N1NS(=O)(=O)c1ccccc1			NS5B polymerase	IC50	Hepatitis C virus	≤30 µM
O=C(Nc1ccc2cn[nH]c2c1)c1cc(N2CCC(O)CC2)c(F)cc1F	1 µg/mL		Reverse transcriptase	inhibition	Hepatitis B virus	42%
CC(C)NC(=O)Nc1cccc(-c2nc(C(=O)O)c(O)c(=O)[nH]2)c1			HCV polymerase	IC50	Hepatitis C virus	<100 µM
O=C(Nc1ccc2[nH]ncc2c1)c1cc(C2CCNCCN2)c(F)cc1F	10 µg/mL		Nonstructural protein 5B	inhibition	Hepatitis C virus	57%
O=C(O)[C@@H](Cc1ccccc1)N(Cc1ccc(-c2ccccc2C(F)(F)F)o1)C(=O)c1ccccc1C(F)(F)F		HPLC	Nonstructural protein 3 NTPase/helicase	IC50	Hepatitis C virus	5–20 µM
CN1CCNCCC1c1cc(C(=O)Nc2ccc3cn[nH]c3c2)c(F)cc1F	0.01 µg/mL		Reverse transcriptase	inhibition	Hepatitis B virus	10%
CCC(=O)N(Cc1ccc(C(C)(C)C)cc1)c1cc(-c2ccccc2)sc1C(=O)O			NS3 ATPase	IC50	Hepatitis C virus	5–20 µM
Cc1ccccc1S(=O)(=O)NC(=O)Nc1cscc1-c1nc(C(=O)O)c(O)c(=O)[nH]1			HCV polymerase	IC50	Hepatitis C virus	<25 µM
C=CCN(C(=O)Cc1ccc(OC)cc1)c1cc(-c2ccccc2)sc1C(=O)O			NS3 ATPase	IC50	Hepatitis C virus	>20 µM
O=C1/C(=C\c2cc(F)c(F)cc2F)SC(=S)N1NS(=O)(=O)Cc1ccccc1			NS5B polymerase	IC50	Hepatitis C virus	≤30 µM
O=C(O)c1sccc1NS(=O)(=O)c1ccc(Br)cc1			NS3 ATPase	IC50	Hepatitis C virus	<5 µM
CC(C)(C)OC(=O)NC(C(=O)Nc1ccsc1-c1nc(C(=O)O)c(O)c(=O)[nH]1)c1cccc2ccccc12			HCV polymerase	IC50	Hepatitis C virus	<25 µM
Cc1c(S(=O)(=O)Nc2cc(-c3ccccc3)sc2C(=O)O)sc2ccc(Cl)cc12			NS3 ATPase	IC50	Hepatitis C virus	<5 µM
O=C(Nc1ccc2cn[nH]c2c1)c1cc(N2CCN(CCO)CC2)c(F)cc1F	0.1 µg/mL		Nonstructural protein 5B	inhibition	Hepatitis C virus	0%
Cc1ccc(S(=O)(=O)N(C)c2cc(-c3ccccc3)sc2C(=O)O)c(C)c1			NS3 ATPase	IC50	Hepatitis C virus	<5 µM
COc1ccc(/C=C2/SC(=S)N(NS(=O)(=O)c3ccccc3)C2=O)cc1			NS5B polymerase	IC50	Hepatitis C virus	≤30 µM
Cc1ccc(C)c(S(=O)(=O)Nc2cc(-c3ccc([N+](=O)[O-])cc3)sc2C(=O)O)c1			NS3 ATPase	IC50	Hepatitis C virus	<5 µM
CC1(C)C(C(=O)Nc2ccsc2-c2nc(C(=O)O)c(O)c(=O)[nH]2)C1(C)C			HCV polymerase	IC50	Hepatitis C virus	<25 µM
O=C(O)[C@H](Cc1ccccc1)N(Cc1cccc(Cl)c1)C(=O)c1ccc(Cl)cc1Cl			RNA-dependent RNA polymerase	IC50	Hepatitis C virus	<5 µM
O=C(Nc1ccc2[nH]ncc2c1)c1cc(N2CCN(CCO)CC2)c(F)cc1F	0.1 µg/mL		Nonstructural protein 5B	inhibition	Hepatitis C virus	8%
O=C(Cc1ccccc1)Nc1cccc(-c2nc(C(=O)O)c(O)c(=O)[nH]2)c1			HCV polymerase	IC50	Hepatitis C virus	<100 µM

Repeating the final 2 entries:

| compound | tested at | read by | protein | measure | organism | result |
|---|---|---|---|---|---|---|
| O=C(Nc1ccc2[nH]ncc2c1)c1cc(N2CCN(CCO)CC2)c(F)cc1F | 0.1 µg/mL |  | Nonstructural protein 5B | inhibition | Hepatitis C virus | 8% |
| O=C(Cc1ccccc1)Nc1cccc(-c2nc(C(=O)O)c(O)c(=O)[nH]2)c1 |  |  | HCV polymerase | IC50 | Hepatitis C virus | <100 µM |

Rows are shuffled and stem from different studies. Two numbers with a dash give a range or band. ICn is the concentration giving n% inhibition. Inhibition is in % at the dose shown (toxicity tests: loss of growth or viability).